# Experiments:
# [1] = test system: L. donovani promastigotes (MHOM/SD/62/1S); experiment: Inhibitory assay against L. donovani promastigotes (resazurin colorimetric assay); type: cell-based, Leishmania donovani; conditions: CC50/IC50; isolated compounds
# Description: The cryopreserved promastigote form of L. donovani (1S (MHOM/SD/62/1S) was obtained from Bei Resources (https://www.beiresources.org/) and is routinely cultured at the Antimicrobial and Biocontrol Agents Unit, University of Yaoundé I, in Medium 199 (Sigma, Darmstadt, Germany) supplemented with 10% Heat-Inactivated fetal Bovine Serum (HIFBS) (Sigma, Darmstadt, Germany) and 100 IU/mL penicillin and 100 μg/mL streptomycin. The culture was maintained in 75 Cm^2 cell culture flask at 28 °C and checked for growth daily and sub-cultured everyday 72 h.
# The stock solutions were prepared by dissolving each sample in 100% dimethyl sulfoxide (DMSO) and subsequently diluted serially in non-supplemented culture medium. […] The viability rate of promastigotes positively correlated with the amount of pink resorufin that was produced through the reduction of blue resazurin by the dehydrogenase enzymes in the inner mitochondrial membrane of the living parasites. Briefly, promastigotes from a logarithmic phase culture (4 × 10^5 cells/mL; 90 μL) were seeded in 96-well microtiter plates and were treated with 10 μl of inhibitors at different triplicate concentrations ranging 100 μg/mL-0.16 μg/mL for extracts and fractions and 50 μg/mL-0.08 μg/mL for compounds. The final concentration of DMSO in each well was not higher than 1%. Plates were incubated for 28 h at 28 °C, followed by the addition of 1 mg/mL resazurin (Sigma, Darmstadt, Germany). […] After an additional incubation for 44 h, plates were then read on a Magelan Infinite M200 fluorescence multi-well plate reader (Tecan, Männedorf, Switzerland) at an excitation and emission wave lengths of 530 and 590 nm respectively.
# L. donovani amastigotes = experiment: Inhibitory assay against intracellular L. donovani amastigotes in Raw 264.7 macrophages (resazurin); type: cell-based, Leishmania donovani; conditions: CC50/IC50; isolated compounds
# Description: The effect of plant isolates against the intracellular amastigote form of L. donovani was evaluated essentially as described by Jain et al. with some modifications. Briefly, macrophage Raw 264.7 cells ([…]) were seeded in 96 well plates and incubated for 6 h at 37 °C under 5% CO2 for adhesion of the cells. Afterwards, the non-adherent cells were washed-out with sterile PBS. The adherent Raw 264.7 cells were infected with metacyclic promastigotes (4 × 10^5 cells) at an infection ratio of 1:10 macrophage: parasites and incubated for 24 h at 37 °C under 5% CO2 in order to allow infection of macrophages by metacyclic promastigotes. Thereafter, the overlying medium was removed, and the monolayer cells with internalized amastigotes were carefully washed four times with PBS to remove free parasites. Freshly prepared M199 medium containing 10% FBS and the test extracts were added in triplicate to the infected cells at serially diluted concentrations and incubated for 48 h at 37 °C under 5% CO2. After incubation, 0.05% Sodium dodecyl sulfate (SDS) was added in each well for 30 s for controlled lysis followed by M199 with 10% FBS as macrophage lysis stopper. Resazurin reagent (250 μg/mL) was thereafter added in each well and the plates were incubated for 24 h followed by fluorescence recording at λexcitation = 530 nm and λemission = 590 nm using a Tecan Infinite M200 microplate reader (Tecan). Inhibition percentages were calculated using Microsoft Excel Software and median inhibitory concentration (IC50) obtained from dose-response curves using GraphPad Prism 5.0. Software.
SMILES,SI (Promastigotes) [1],SI (Amastigotes) (L. donovani amastigotes)
"C=C(C)[C@@H]1CC[C@]2(C)CC[C@]3(C)[C@H](CC[C@@H]4[C@@]5(C)CC[C@H](O)C(C)(C)[C@@H]5CC[C@]43C)[C@@H]12 [Lupeol (1), Lupeol]",0.82,0.41
"C=C(C)[C@@H]1CC[C@]2(C(=O)O)CC[C@]3(C)[C@H](CC[C@@H]4[C@@]5(C)CC[C@H](O)C(C)(C)[C@@H]5CC[C@]43C)[C@@H]12 [Betulinic acid (3), Betulinic acid]",6.02,4.46
"CCC(CCC(C)C1CCC2C3CC=C4CC(OC5OC(CO)C(O)C(O)C5O)CCC4(C)C3CCC12C)C(C)C [β-sitosterol glucoside (6), β-sitosterol 3-O-D-glucopyranoside]",0.58,0.89

# Reference: paper PMC8011081, “Bio-guided isolation of anti-leishmanial natural products from Diospyros gracilescens L. (Ebenaceae)” (BMC Complementary Medicine and Therapies, 2021)
